Values from PubChem BioAssay AID1259414 (Drosophila RNAi Screening Center, 2018)

- Aim: 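Host factors increasing or decreasing Wolbachia levels in cultured fly cells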 (primary screen)
- System: Drosophila JW18 cells infected with Wolbachia
- Reagent: long dsRNA against Drosophila genes, 0.25 µg dsRNA per well of a 384-well plate
- Time to read-out: 5 days
- Treatment: cells persistently infected with Wolbachia before knock-down; no added drug
- Measurement: 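Automated imaging of bacterial rRNA staining divided by host cell count, reported as plate-normalised robust z-score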
- Direction: Wolbachia per cell robust z: higher = more Wolbachia per host cell than the plate typical
- Call rule: 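Hit when robust z is 1.5 or more, or -1.5 or less, in at least two of three replicates; excludes dsRNAs with several or no targets, genes not expressed in JW18 and well A1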
The screen tested about 24,000 reagents; shown is an unselected part of those with a known target gene and a result. Of all reagents, about 1,210 (5%) are marked active. 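Inactive calls also include excluded dsRNAs with several or no targets, genes unexpressed in JW18, and well A1, regardless of score.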 A number with no mark means an inactive call. Names joined by + are all predicted targets of the reagent. No sequences are given here.

| Target gene | dsRNA | Wolbachia per cell robust z, rep 1 | Wolbachia per cell robust z, rep 2 | Wolbachia per cell robust z, rep 3 |
| --- | --- | --- | --- | --- |
| hay (haywire) | DRSC11354 | -0.0759 | -3.52 | -0.799 |
| CG15373 | DRSC19663 | -1.49 | -0.881 | -0.761 |
| CG13721 | DRSC08330 | -0.702 | 1.14 | 0.77 |
| CG6865 | DRSC10732 | -2.13 | -1.13 | 0.161 |
| CG14866 | DRSC14989 | -0.753 | -0.602 | -0.934 |
| CG9632 | DRSC16528 | -0.399 | -6.1 | 0.541 |
| Nlp (Nucleoplasmin) | DRSC16759 | -0.706 | -0.442 | 0.221 |
| Nlp (Nucleoplasmin) | DRSC26421 | 0.336 | 1.19 | 0.76 |
| Lamtor1 (Late endosomal/lysosomal adaptor, MAPK and MTOR activator 1) | DRSC10183 | 0.221 | -0.557 | 0.536 |
| aop (anterior open) | DRSC22999 | 0.136 (active) | -2.3 | -1.77 |
| aop (anterior open) | DRSC25805 | 0.147 | 0.435 | 1.3 |
| aop (anterior open) | DRSC39162 | 0.277 | -0.0519 | 0.988 |
| CG16888 | DRSC02541 | -0.135 | 0.094 | 1.12 |
| CG42240 | DRSC18097 | 0.709 | 0.28 | 2.32 |
| CG42240 | DRSC30017 | -0.381 | -0.139 | 0.238 |
| pnt (pointed) | DRSC23204 | 0.228 | 1.41 | 0.141 |
| pnt (pointed) | DRSC29116 | 0.534 | 0.285 | 1.85 |
| CG18262 | DRSC18149 | -1.27 | 1.27 | -1.08 |
| CG18262 | DRSC24242 | -0.569 | 1.23 | 0.234 |
| gammaTry + CG30031 + CG30025 + 1 more | DRSC21262 | 0.296 | 1.08 | 0.755 |
| gammaTry + CG30031 + CG30025 + 1 more | DRSC27531 | 1.06 | 2.34 | 0.823 |
| kni (knirps) | DRSC23093 | 0.13 | 0.234 | 0.596 |
| kni (knirps) | DRSC29974 | 0.109 | 0.677 | 0.21 |
| kni (knirps) | DRSC41376 | -0.262 | 0.107 | -1.7 |
| CG15480 | DRSC02490 | -4.65 | -1.76 | -0.987 |
| CG15480 | DRSC24919 | -2.19 | 2.03 | -8.49 |
| l(3)psg2 (lethal (3) persistent salivary gland 2) | DRSC10484 | -0.123 | 0.0843 | -1.1 |
| l(3)psg2 (lethal (3) persistent salivary gland 2) | DRSC24075 | -1.71 (active) | -1.77 | 0.0373 |
| Ssu72 (Ssu72 CTD phosphatase) | DRSC19572 | -0.488 | 0.429 | -0.363 |
| Ssu72 (Ssu72 CTD phosphatase) | DRSC27868 | -0.41 | 0.0306 | -1.06 |
| Ssu72 (Ssu72 CTD phosphatase) | DRSC41579 | 0.788 | -0.585 | 0.834 |
| CG17580 | DRSC06683 | -3.31 | 0.745 | -1.78 |
| CG17580 | DRSC27009 | -0.747 | 0.186 | -1.18 |
| CG31198 | DRSC15891 | -1.62 | 0.258 | 0.281 |
| CG8435 | DRSC07179 | 1.16 | -0.406 | 1.73 |
| CG8435 | DRSC29713 | 0.461 | 0.176 | -3.24 |
| CHMP2B (Charged multivesicular body protein 2b) | DRSC10436 | -1.47 | -1.16 | -1.35 |
| CHMP2B (Charged multivesicular body protein 2b) | DRSC26221 | 0.826 | 0.243 | 0.484 |
| jing | DRSC04923 | 0.941 | 0.325 | 0.764 |
| jing | DRSC05000 | 0.616 | 0.985 | -4.63 |
| Rh2 (Rhodopsin 2) | DRSC16821 | -0.196 | 0.126 | -0.431 |
| Rh2 (Rhodopsin 2) | DRSC25598 | -0.0354 | 3.27 | 0.207 |
| Prosalpha4T2 (Proteasome alpha4 subunit, Testis-specific 2) | DRSC04643 | 1.14 | 0.191 | 0.462 |
| Prosalpha4T2 (Proteasome alpha4 subunit, Testis-specific 2) | DRSC28312 | 0.618 | 1.64 | 0.229 |
| Prosalpha4T2 (Proteasome alpha4 subunit, Testis-specific 2) | DRSC38976 | -0.526 | -0.323 | 0.541 |
| CG5515 | DRSC15825 | 1.43 | 3.05 | 0.894 |
| Vta1 (Vesicle trafficking 1) | DRSC08604 | -0.479 | 0.498 | 0.674 |
| Vta1 (Vesicle trafficking 1) | DRSC22848 | -0.189 | -0.66 | -1.86 |
| Ote (Otefin) | DRSC07498 | -0.925 | -0.256 | -0.0738 |
| CG32262 | DRSC08165 | 0.769 | 0.686 | -0.218 |
| CG32262 | DRSC29141 | 0.406 | -0.899 | 0.00604 |
| mip40 (Myb-interacting protein 40) | DRSC06541 | -0.951 | -1.01 | 0.945 |
| CG5890 | DRSC15909 | 1.05 | 0.464 | -2.15 |
| CG13358 + Sec22 | DRSC18538 | -0.106 | -0.696 | -0.771 |
| Syn1 + CG7370 | DRSC22768 | -0.367 | -0.344 | -1.95 |
| Sou (Souji) | DRSC04356 | -0.364 | -3.43 | -1.33 |
| Elovl7 (ELOVL fatty acid elongase 7) | DRSC15452 | 0.519 | -0.189 | -7.59 |
| Elovl7 (ELOVL fatty acid elongase 7) | DRSC21570 | 0.202 | 0.024 | -0.911 |
| Elovl7 (ELOVL fatty acid elongase 7) | DRSC25259 | 1.66 | -0.945 | 3.13 |
| CG5043 | DRSC02805 | 1.38 | 0.306 | 0.128 |
| CG5043 | DRSC25720 | -0.782 | -0.267 | -0.35 |
| CG14362 | DRSC14824 | -1.4 | -1.17 | -3.27 |
| CG14362 | DRSC41508 | 0.515 | 0.403 | 0.413 |
| Obp56h (Odorant-binding protein 56h) | DRSC06433 | -0.713 | 0.567 | 0.41 |
| Obp56h (Odorant-binding protein 56h) | DRSC24257 | 0.408 | 1.63 | 0.999 |
| CG12990 | DRSC19510 | 0.0906 | -2.14 | -0.531 |
| pyd (polychaetoid) | DRSC14387 | -0.673 (active) | -4.97 | -7.2 |
| pyd (polychaetoid) | DRSC14445 | -2.92 | 1.35 | 0.593 |
| pyd (polychaetoid) | DRSC14509 | -1.87 | -0.665 | 0.608 |
| pyd (polychaetoid) | DRSC16547 | -0.222 | -0.106 | 0.33 |
| pyd (polychaetoid) | DRSC17041 | 0.585 | -0.121 | 0.0364 |
| pyd (polychaetoid) | DRSC23116 | 0.467 | 0.138 | 0.141 |
| pyd (polychaetoid) | DRSC26890 | -0.181 | -0.701 | -0.269 |

Not a retest: an excerpt of the list.
| Target gene | dsRNA | Wolbachia per cell robust z, rep 1 | Wolbachia per cell robust z, rep 2 | Wolbachia per cell robust z, rep 3 |
| --- | --- | --- | --- | --- |
| Prosalpha4T2 (Proteasome alpha4 subunit, Testis-specific 2) | DRSC38976 | -0.526 | -0.323 | 0.541 |
| CG5515 | DRSC15825 | 1.43 | 3.05 | 0.894 |
| Vta1 (Vesicle trafficking 1) | DRSC08604 | -0.479 | 0.498 | 0.674 |
